Experimental findings from patent publication US20190300927A1, “METABOLIC ASSAY FOR BACTERIAL GROWTH AND GRAM TYPING” (SELUX DIAGNOSTICS, INC., priority 2018, published 2019) are described below.

The subject of this test is Pseudomonas aeruginosa. Description: Metabolic indicator detection of P. aeruginosa growth (FIG. 1, AST protocol). The class given is cell-based. Conditions: growth detection in <5 hours.

As to iodonitrotetrazolium, the “metabolism of the indicator by P. aeruginosa / detection of P. aeruginosa growth” value is given as “not capable of detecting P. aeruginosa growth”.
